# PubChem BioAssay AID624099 | ICCB-Longwood | 2012
# Purpose: 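Knock-downs relieving repression by E2 of an HPV18 LCR luciferase reporter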 (primary screen)
# Cells: human C33A cervical carcinoma cells (HPV-negative) stably expressing BPV1 E2 and an HPV18 LCR luciferase reporter
# Knock-down reagent: siRNA pool against human genes, 40 nM
# Time to read-out: 72 h
# Read-out: 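Per-well luciferase luminescence, z-scored on each plate against the plate mean and SD with control wells left out, then averaged across three replicate plates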
# Reading the numbers: mean z-score and z-score: higher = stronger reporter signal, weaker E2 silencing
# Hit rule: 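Hit if mean z-score reaches 2 and two or more of three replicate z-scores also reach 2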
# This is one part, drawn at random, of about 21,000 deposited reagents. 497 of them (2.4%) were called active. 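Higher z means weaker E2 silencing; only reporter increases were scored, and knock-downs that hurt cell survival may mask genuine repressor factors.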 A number with no mark means an inactive call.
Target gene,mean z-score,"z-score, replicate A","z-score, replicate B","z-score, replicate C"
SGPP2,-0.1,-0.11,-0.02,-0.18
VPS35L,0.88,0.92,0.9,0.82
PIKFYVE,-0.46,-0.81,-0.54,-0.02
DYDC2,1.68,1.79,1.86,1.37
HTRA1,0.93,1.29,0.51,0.99
CDIPT,-1.24,-1.22,-1.14,-1.36
ZNF322,-0.25,-0.47,-0.33,0.06
CLDN22,-0.5,-0.26,-0.5,-0.74
PRKAR1A,-0.96,-0.92,-1.1,-0.86
SPRYD3,0.75,0.55,0.65,1.05
APOBEC3A,-0.21,0.05,-0.39,-0.27
APRG1,-0.35,-0.3,-0.45,-0.3
TDRD7,0.07,0.5,-0.34,0.04
RGS13,-0.57,-0.49,-0.56,-0.67
HOXB4,0.04,0.05,0.06,0.01
SRPX,0.14,0.36,0.16,-0.09
LOC389936 (retired record),-0.57,-0.46,-0.7,-0.56
PCDHA11,-1.74,-1.71,-1.8,-1.71
DENND6A,0.24,0.22,0.28,0.21
MAPT,-2.78,-3.02,-2.86,-2.44
LINC01743,0.89,0.79,1.19,0.69
ZNF93,0.52,0.93,0.21,0.41
TPM3,-0.39,-0.35,-0.21,-0.62
PRDX2,0.39,0.25,0.37,0.55
PROK1,0.07,-0.01,0,0.23
EMC4,-0.82,-0.4,-1.17,-0.87
LOC402237 (retired record),-1.08,-1.01,-1.17,-1.05
SFTPB,0.28,0.48,0.2,0.17
SLC12A1,0.19,-0.03,0.56,0.03
RAX2,-0.97,-0.76,-0.91,-1.24
TXNL1,-0.4,-0.66,-0.3,-0.24
SLC17A6,1.78,1.72,1.77,1.87
LOC391035 (retired record),-0.68,-0.57,-0.4,-1.06
ZRANB3,1.01,1.38,0.91,0.75
CWC25,0.56,0.41,0.71,0.55
ZNF208,-0.05,0.11,-0.19,-0.07
LAG3,1.11,1.25,0.87,1.2
C1orf146,0.09,0.12,0.16,0
RAB14,0.85,0.65,0.83,1.05

Limited to “mean z-score” (3 entries from above):
LOC402237 (retired record): -1.08
SFTPB: 0.28
SLC12A1: 0.19
